DMS reactivity of the HIV-1 5' RNA in monomer and dimer

RNA: 5' end of the HIV-1 NL4-3 genome, made in vitro. Positions 1-437 read:
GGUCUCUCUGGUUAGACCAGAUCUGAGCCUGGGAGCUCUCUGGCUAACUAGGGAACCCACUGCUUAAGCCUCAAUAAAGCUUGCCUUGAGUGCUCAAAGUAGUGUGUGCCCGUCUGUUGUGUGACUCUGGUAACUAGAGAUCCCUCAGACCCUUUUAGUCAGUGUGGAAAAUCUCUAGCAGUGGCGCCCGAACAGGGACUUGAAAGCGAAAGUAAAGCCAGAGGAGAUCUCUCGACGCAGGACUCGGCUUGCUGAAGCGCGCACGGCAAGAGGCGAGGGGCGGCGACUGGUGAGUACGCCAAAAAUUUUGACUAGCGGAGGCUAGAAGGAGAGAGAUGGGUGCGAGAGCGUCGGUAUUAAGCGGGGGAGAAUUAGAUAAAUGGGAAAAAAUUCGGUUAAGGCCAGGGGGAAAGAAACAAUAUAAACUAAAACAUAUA

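Mutant RNA libraries with 1G, 2G or 3G starts, with or without cap, were folded at 37 °C for 30 min. High salt was 300 mM KCl and 5 mM MgCl2, low salt 40 mM KCl and 0.1 mM MgCl2; monomer and dimer were parted on a native gel. Each band was probed in the gel with DMS (170 mM, 15 min, 37 °C), with ethanol as control, and sequenced.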

Values are winsor-normalised DMS reactivities of A and C; higher means more reactive, usually unpaired. One numbering serves 1G, 2G and 3G. A position is written with its base. A dash means no value.

position,domain,2G uncapped low-salt dimer,2G uncapped low-salt monomer
C264,SL1,0.21,0.45
C267,SL1,0.07,0.14
A268,SL1,0.18,0.26
A269,SL1,0.26,0.44
A271,SL1,0.57,0.53
C274,SL1,0.26,0.68
A276,SL1,0.41,1.05
C281,none,0.46,0.34
C284,SL2,0.17,0.21
A286,SL2,0.65,0.51
C287,SL2,0.44,0.28
A293,SL2,0.89,0.79
A296,SL2,0.63,0.59
C297,SL2,0.15,0.18
C299,SL2,0.06,0.05
C300,none,0.04,0.06
A301,none,0.27,0.25
A302,none,1.29,1.19
A303,none,0.07,0.07
A304,none,0.16,0.16
A305,none,0.73,0.69
A311,none,1.33,1.21
C312,SL3,0.08,0.10
A314,SL3,0.04,0.03
C316,SL3,0.06,0.12
A319,SL3,0.94,0.88
C322,SL3,0.04,0.03
A324,SL3,0.08,0.11
A326,none,0.96,0.80
A327,none,1.12,0.98
A330,none,0.89,0.87
A332,none,0.51,0.60
A334,AUG,0.42,0.50
A336,AUG,0.81,0.91
C343,AUG,0.37,0.37
A345,none,1.27,1.23
A347,none,0.28,0.28
C349,none,0.35,0.33
C352,none,0.42,0.33
A356,none,0.99,-
A359,none,0.58,-
A360,none,0.63,-
C362,none,0.43,-
A368,none,0.85,-
A370,none,0.55,-
A371,none,0.97,-
A374,none,0.55,-
A376,none,0.80,0.72
A378,none,0.20,0.21
A379,none,0.63,0.56
A380,none,0.86,0.80
A385,none,0.58,0.52
A386,none,1.38,1.28
A387,none,0.23,0.22
A388,none,0.08,0.08
A389,none,0.17,0.17
A390,none,0.94,0.88
C393,none,0.68,0.60
A398,none,0.22,0.22
A399,none,0.31,0.28
C402,none,0.05,0.04
C403,none,0.04,0.03
A404,none,0.31,0.24
A410,none,0.43,0.40

A selection of 7 entries from above:

For C284 (domain SL2) the result was 2G uncapped low-salt dimer 0.17; 2G uncapped low-salt monomer 0.21.
For A386 the result was 2G uncapped low-salt dimer 1.38; 2G uncapped low-salt monomer 1.28.
For A336 (domain AUG) the result was 2G uncapped low-salt dimer 0.81; 2G uncapped low-salt monomer 0.91.
For A305 the result was 2G uncapped low-salt dimer 0.73; 2G uncapped low-salt monomer 0.69.
For C274 (domain SL1) the result was 2G uncapped low-salt dimer 0.26; 2G uncapped low-salt monomer 0.68.
For A324 (domain SL3) the result was 2G uncapped low-salt dimer 0.08; 2G uncapped low-salt monomer 0.11.
For A390 the result was 2G uncapped low-salt dimer 0.94; 2G uncapped low-salt monomer 0.88.

Source: Ye et al. 2022 (doi:10.1038/s41594-022-00746-2), supplementary data.